Measured values from several laboratories, pooled; numbers as filed in NIAID ChemDB.

Shared fields: growth or infection tests; species: HIV-2

Fold resistance has wild type as its base.

structure,strain or isolate,cells,mutations,dose,read by,read-out,value
CO[C@@H]1[C@@H](O)[C@@H](O)[C@H](O)[C@H](O)[C@H]1n1ccc(N)nc1=O,-,MT-4,-,10 µg/mL,cytopathic effect / MTT,inhibition,45.2%
COc1ccc2nc3n(c2c1)C(c1c(F)cccc1F)SC3,ROD,MT-4,-,-,cytopathic effect / MTT,EC50,>392 µM
C#C[C@]1(CO)O[C@@H](n2cnc3c(N)nc(F)nc32)CC1O,ROD9,MAGIC-5A,M184V,-,β-galactosidase / absorbance,fold resistance,26
CO[C@H]1[C@@H](O)[C@H](n2cnc3c(N)ncnc32)[C@@H](O)[C@H](O)[C@@H]1O,-,MT-4,-,10 µg/mL,cytopathic effect / MTT,inhibition,57.6%
CC(C)[C@H](NC(=O)c1ccc2ccccc2n1)C(=O)N[C@@H](Cc1ccccc1)[C@H](O)CN1CC[C@@H](OCc2ccncc2)C[C@H]1C(=O)NC(C)(C)C,ROD,PBMC,-,0.158 µM,p24,inhibition,90%
O=C(c1ccccc1)c1ccc2nc3n(c2c1)C(c1c(F)cccc1F)SC3,ROD,MT-4,-,-,cytopathic effect / MTT,EC50,>1.3 µM
CO[C@@H]1[C@@H](O)[C@@H](O)[C@H](O)[C@H](O)[C@H]1n1ccc(N)nc1=O.O=C(O)/C=C/C(=O)O,-,MT-4,-,10 µg/mL,cytopathic effect / MTT,inhibition,32.6%
[B-]P(=O)([O-])CC[C@@H]1C=C[C@H](n2cc(C)c(=O)[nH]c2=O)O1,ROD,CEM,-,400 µM,syncytia,inhibition,0%
Fc1ccc2nc3n(c2c1)C(c1c(Cl)cccc1Cl)SC3,ROD,MT-4,-,-,cytopathic effect / MTT,EC50,>368 µM
Cc1cc(N[C@H](C)c2cccc3ccccc23)cc(=O)o1,ROD,CEM,-,-,MTT,EC50,>10 µM
Fc1ccc2c(c1)nc1n2C(c2c(F)cccc2F)SC1,ROD,MT-4,-,-,cytopathic effect / MTT,EC50,>35.9 µM
Cc1cn([C@H]2C[C@H](N=[N+]=[N-])[C@@H](CO)O2)c(=O)[nH]c1=O,LAV-2,CEM,-,100 µM,virus yield,inhibition,99.9%
Cc1cc(NCCc2c[nH]c3ccccc23)cc(=O)o1,ROD,CEM,-,-,MTT,EC50,≥50 µM
CCCC(=O)O[C@H]1CN2CC[C@H](O)[C@@H]2[C@@H](O)[C@@H]1O,ROD,H9,-,40 µM,-,inhibition,99%
Cc1cc(N(Cc2cccc3ccccc23)C(=O)C(Cl)Cl)cc(=O)o1,ROD,CEM,-,-,MTT,EC50,≥10 µM
Cc1cccc2nc3n(c12)C(c1c(F)cccc1F)SC3,ROD,MT-4,-,-,cytopathic effect / MTT,EC50,>21.5 µM
Cc1cc(NCCc2cccc3ccccc23)cc(=O)o1,ROD,CEM,-,-,MTT,EC50,>10 µM
COc1ccc(CN[C@@H](C(=O)N[C@H]2c3ccccc3C[C@H]2O)[C@H](O)[C@H](Cc2ccccc2)NC(=O)[C@@H](NC(=O)OCc2ccccc2)C(C)(C)C)cc1,ROD,MT-4,-,0.6 µM,p24,inhibition,90%

A second listing of 2 rows from above:

structure | strain or isolate | cells | mutations | dose | read by | read-out | value
Cc1cc(N(Cc2cccc3ccccc23)C(=O)C(Cl)Cl)cc(=O)o1 | ROD | CEM | - | - | MTT | EC50 | ≥10 µM
Fc1ccc2nc3n(c2c1)C(c1c(Cl)cccc1Cl)SC3 | ROD | MT-4 | - | - | cytopathic effect / MTT | EC50 | >368 µM

Percent inhibition refers to the dose given; in toxicity tests it is the harm to the cells. Neighbouring rows are from separate reports. ECn: concentration that inhibits the pathogen or its effect by n%. An empty or dashed field is not shown.